Measured values from several laboratories, pooled; numbers as filed in NIAID ChemDB.

Shared fields: growth or infection tests; species: Mycobacterium smegmatis; read-out: MIC

Rows are shuffled and stem from different studies. An empty or dashed field is not shown. a–b is a range or a potency band.

structure | strain or isolate | changes | read by | result
COc1cc2c(cc1OC)CN(c1cc3c(=O)c(C(=O)O)c4n(c3cc1F)CS4)CC2 | ATCC 14468 |  | agar | 113 µM
COc1ccc2c3conc3c(=O)n(CCCN3C[C@@H]4CN(c5ccc6c(n5)NC(=O)CO6)C(=O)O[C@H]4C3)c2c1 | ATCC 19420 |  | broth dilution | ≤1 µg/mL
CN(C)C(=O)CC(CSc1ccccc1)Nc1c(C(=O)N/N=C/c2ccc(F)cc2)cnc2cccc(C(F)(F)F)c12 | ATCC 19420 |  | resazurin | >100 µg/mL
O=C(O)c1c2n(c3cc(N4CCN(C(=O)C5COc6ccccc6O5)CC4)c(F)cc3c1=O)CS2 | ATCC 14468 MC2 |  | agar | 50.25 µM
COc1ccc(-c2[nH]c3ccccc3c2C2=C(Br)C(=O)NC2=O)cc1 | SG987 |  |  | 13.1 µg/mL
CCCCCCCCCCCCCCCCCCCC(=O)NC(CCC(=O)O)(CCC(=O)O)CCC(=O)O | mc155 |  |  | 3 µg/mL
O=C(Nc1ccc(Cn2ccnc2)cc1)c1ccc(-c2ccccc2)cc1 | 103599 |  |  | >16 µg/mL
CC[C@H](C)[C@@H](NC(=O)[C@@H](CCC(=O)O)NC(=O)[C@H](Cc1cnc[nH]1)NC(=O)[C@H](C)NC(=O)[C@H](N)Cc1ccccc1)C(=O)N[C@H]1CCCCNC1=O |  |  | resazurin | >50 µg/mL
CCCCCCCCCCCCCOc1cc(-c2ccc(F)cc2)nc2ccccc12 | ATCC 607 |  |  | 250 µg/mL
CCCCCCCCC(O)[C@@H]1O[C@H]([C@H](O)CNC(C)=O)C(O)C1O | mc2155 |  | absorbance | >1.5 µM
CCCCCCCCCCCCCCCCCCCCCCCC(=O)NC(CCC(=O)O)(CCC(=O)O)CCC(=O)O | mc155 |  |  | 54 µg/mL
O=C(O)c1c2n(c3cc(N4CCSCC4)c([N+](=O)[O-])cc3c1=O)CS2 | ATCC 14468 MC2 |  | agar | 132 µM
COc1c(N2CC(C)OC(C)C2)c(F)cc2c(=O)c(C(=O)O)cn(C3CC3)c12 | ATCC 14468 |  | agar | 16.01 µM
COc1ccc(/C=C/C2=NN(C(=N)N)C(c3ccc(OC)cc3)C2)cc1 |  |  | resazurin | 1.78 µM
O=C(O)c1c2n(c3cc(N4CCC(O)(c5ccc(Cl)cc5)CC4)c([N+](=O)[O-])cc3c1=O)CS2 | ATCC 14468 MC2 |  | agar | 6.42 µM
COc1ccc(/C=N/NC(=O)c2cnc3cccc(C(F)(F)F)c3c2NC(CSc2ccccc2)CC(=O)N(C)C)cc1 | ATCC 19420 |  | resazurin | >100 µg/mL
C=C1C2CCC(C(=O)O)[C@@]23CC[C@H](C3)C1(C)C |  | MDR quinolone-resistant | agar diffusion | 12.5 µg/mL
CCCCCCCN(CCCCCCC)C(=O)NC(CCC(=O)O)(CCC(=O)O)CCC(=O)O | mc155 |  |  | 54 µg/mL
O=C(O)c1c2n(c3cc(F)c(N4CCN(C(c5ccccc5)c5ccc(Cl)cc5)CC4)cc3c1=O)CS2 | ATCC 14468 |  | agar | 46.64 µM
CC(C)(C)OC(=O)NC1C2CN(c3cc4c(cc3[N+](=O)[O-])c(=O)c(C(=O)O)c3n4CS3)CC21 | ATCC 14468 MC2 |  | agar | 13.17 µM
CCCCCCCCOc1cc(-c2cccc(F)c2)nc2ccccc12 | ATCC 607 |  |  | 62.5 µg/mL
Cc1ccccc1NC(=O)CCCc1[nH]c2ccccc2c1C1=C(Br)C(=O)NC1=O | SG987 |  |  | 8 µg/mL
CCCCO[C@@H]1O[C@H]([C@H](O)CO)C(O)C1O | mc2155 |  | absorbance | >2.1 µM
CCCCC/C=C/CCCCc1cc(=O)c2ccccc2n1C | ATCC 19420 |  | MTT | 13.9 µM
COc1c(N2CCn3cc(C(=O)O)nc3C2)c(F)cc2c(=O)c(C(=O)O)cn(C3CC3)c12 | ATCC 14468 |  | agar | 7.08 µM
CCCNCCCOCc1ccc(Nc2ccn(CCCCN3CCC(N)CC3)c(=O)n2)nc1 |  |  | turbidity | 32–128 µg/mL
COc1ccccc1-c1[nH]c2ccccc2c1C1=C(Br)C(=O)N(C)C1=O | SG987 |  |  | 6.25 µg/mL
NC1CCN(CCCCn2ccc(Nc3cc(COCCCNC4CC4)ccn3)nc2=O)CC1 |  |  | turbidity | <8 µg/mL
O=C(Nc1ccccc1Cn1ccnc1)c1ccc(-c2ccccc2)cc1 | 103599 |  |  | >16 µg/mL
CNCCC[C@@H](CN[C@H](CN)Cc1cccc2ccccc12)NCCc1cccc2ccccc12 | mc2155 |  | absorbance | 6.25 µM
C[C@H]1O[C@H](O[C@H]2CC[C@H](n3ccc(NC(=O)c4ccc(N5CN[C@@](C)(CO)C5=O)cc4)nc3=O)O[C@@H]2C)[C@H](O)[C@@H](O)[C@@H]1N(C)C |  |  | broth dilution / agar diffusion | 32 µg/mL
O=C(O)c1c2n(c3cc([N+](=O)[O-])c(N4CCN(C(=O)C5COc6ccccc6O5)CC4)cc3c1=O)CS2 | ATCC 14468 |  | agar | 47.66 µM
CN(C)C(=O)CC(CSc1ccccc1)Nc1c(C(=O)N/N=C/c2cc(F)ccc2O)cnc2cccc(C(F)(F)F)c12 | ATCC 19420 |  | resazurin | >100 µg/mL
CCCCCCCCO[C@@H]1OC(CO)[C@H](O)[C@H](O)C1O | mc2155 |  | absorbance | >2 µM
CCCCCCCCCCCCC(CCCCCCCCCCCC)NC(=O)NC(CCC(=O)O)(CCC(=O)O)CCC(=O)O | mc155 |  |  | 72 µg/mL
CCCCCCCCCCCCCCCOc1cc(-c2ccc(F)cc2)nc2ccccc12 | ATCC 607 |  |  | 250 µg/mL
O=C(O)c1cn2c(n1)CN(c1cc3c(cc1F)c(=O)c(C(=O)O)c1n3CS1)CC2 | ATCC 14468 MC2 |  | agar | 60.04 µM
COc1ccc2ccc(=O)n(CCN3C[C@@H]4CN(c5ccc6c(n5)NC(=O)CO6)C(=O)O[C@H]4C3)c2n1 | ATCC 19420 |  | broth dilution | ≤1 µg/mL
CCc1cc(C(N)=S)ccn1 | mc2155 |  |  | 10 µg/mL
O=C(O)c1cn2c(n1)CN(c1cc3c(=O)c(C(=O)O)c4n(c3cc1F)CS4)CC2 | ATCC 14468 |  | agar | 60.04 µM
CCCCCCCCCCCCCCCCC(=O)NC(CCC(=O)O)(CCC(=O)O)CCC(=O)O | mc155 |  |  | 27 µg/mL
CCCCCCCCC(O)[C@@H]1O[C@H]([C@H](O)CNC(=O)c2ccccc2)C(O)C1O | mc2155 |  | absorbance | 0.86 µM
CCCCCCCCCCCOc1cc(-c2ccc(F)cc2)nc2ccccc12 | ATCC 607 |  |  | 250 µg/mL
NC1CCN(CCCCn2ccc(Nc3cc(CO)ccn3)nc2=O)CC1 |  |  | turbidity | 32–128 µg/mL
NCC[C@H](O)C(=O)N[C@@H]1C[C@H](N)[C@@H](O[C@H]2O[C@H](CN)[C@@H](O)[C@H](O)[C@H]2O)[C@H](O)[C@H]1O[C@H]1O[C@H](CO)[C@@H](O)[C@H](N)[C@H]1O | mc155 |  |  | 2.3 µg/mL
FC(F)(F)c1cc(-c2ccccc2)nc(N2N=C(/C=C/c3ccc(Cl)cc3)CC2c2ccc(Cl)cc2)n1 |  |  | resazurin | >20.6 µM
CCCC[C@@H](CN[C@H](CN)CCN)NCc1cccc2ccccc12 | mc2155 |  | absorbance | 50 µM
O=C(O)CC1Sc2nnc(Cc3ccc(Br)cc3)n2N=C1c1ccc(Cl)cc1 |  |  | resazurin | 20 µM
NCCOCc1ccc(Nc2ccn(CCCCN3CCC(N)CC3)c(=O)n2)nc1 |  |  | turbidity | 32–128 µg/mL
O=C(O)c1c2n(c3cc(F)c(N4CCN(C(=O)C5COc6ccccc6O5)CC4)cc3c1=O)CS2 | ATCC 14468 |  | agar | 50.25 µM
COc1ccc(/C=N/NC(=O)c2cnc3cccc(C(F)(F)F)c3c2NC(CSc2ccccc2)CC(=O)N(C)C)cc1O | ATCC 19420 |  | resazurin | >100 µg/mL
CCCCCCCCCCCCCCCCCOC(=O)NC(CCC(=O)O)(CCC(=O)O)CCC(=O)O | mc155 |  |  | 27 µg/mL
CCCCCCCCO | mc2155 |  | absorbance | >3.8 µM
CN1CCN(Cc2cccc(NC(=O)c3ccc(-c4ccccc4)cc3)c2)CC1 | 103599 |  |  | 8 µg/mL
COc1c(N2CCN(Cc3ccc4c(c3)OCO4)CC2)c(F)c([N+](=O)[O-])c2c(=O)c(C(=O)O)cn(C3CC3)c12 | ATCC 14468 |  | agar | 1.44 µM
CCCCCCCOc1cc(-c2cccc(F)c2)nc2ccccc12 | ATCC 607 |  |  | 62.5 µg/mL
Cc1onc(-c2c(F)cccc2F)c1C(=O)N1CCN(c2cc3c(cc2[N+](=O)[O-])c(=O)c(C(=O)O)c2n3CS2)CC1 | ATCC 14468 MC2 |  | agar | 5.36 µM
CC(C)(C)OC(=O)NC1C2CN(c3cc4c(=O)c(C(=O)O)c5n(c4cc3F)CS5)CC21 | ATCC 14468 |  | agar | 55.87 µM
COc1cc(-c2ccccn2)nc(CO)c1SC |  |  | broth dilution / agar diffusion | 64 µg/mL
COc1cc(/C=C/C2=NN(C(=N)N)C(c3cc(OC)c(OC)c(OC)c3)C2)cc(OC)c1OC |  |  | resazurin | 21.2 µM
CCCCCCc1[nH]c2ccccc2c1C1=C(Br)C(=O)N(C)C1=O | SG987 |  |  | 3.12 µg/mL
O=C(Nc1ccccc1CN1CCOCC1)c1ccc(Cl)cc1 | 103599 |  |  | >16 µg/mL
Cc1ccccc1NC(=O)CCCCCCc1[nH]c2ccccc2c1C1=C(Br)C(=O)NC1=O | SG987 |  |  | 0.25 µg/mL
COc1c(N2CCC(O)(c3ccc(Cl)cc3)CC2)c(F)cc2c(=O)c(C(=O)O)cn(C3CC3)c12 | ATCC 14468 |  | agar | 12.84 µM

A second listing of 6 rows from above:

structure	strain or isolate	changes	read by	result
CCCCCCCCCCCCCCCCCCCCCCCC(=O)NC(CCC(=O)O)(CCC(=O)O)CCC(=O)O	mc155			54 µg/mL
COc1cc2c(cc1OC)CN(c1cc3c(=O)c(C(=O)O)c4n(c3cc1F)CS4)CC2	ATCC 14468		agar	113 µM
O=C(O)c1c2n(c3cc(F)c(N4CCN(C(=O)C5COc6ccccc6O5)CC4)cc3c1=O)CS2	ATCC 14468		agar	50.25 µM
CC(C)(C)OC(=O)NC1C2CN(c3cc4c(=O)c(C(=O)O)c5n(c4cc3F)CS5)CC21	ATCC 14468		agar	55.87 µM
O=C(O)c1c2n(c3cc(N4CCSCC4)c([N+](=O)[O-])cc3c1=O)CS2	ATCC 14468 MC2		agar	132 µM
FC(F)(F)c1cc(-c2ccccc2)nc(N2N=C(/C=C/c3ccc(Cl)cc3)CC2c2ccc(Cl)cc2)n1			resazurin	>20.6 µM